Results of unrelated studies side by side (data: NIAID ChemDB).

Common to all: tests on isolated targets; organism: Hepatitis C virus; protein: Nonstructural protein 5B; measure: IC50

ICn: concentration for n% inhibition.

| SMILES | strain | changes | read by | value |
|---|---|---|---|---|
| CCOC(=O)C1=CN(N2CCN(c3nc(Nc4ccc5[nH]ncc5c4)nc(OC)n3)CC2)C(SC)N=C1 |  |  |  | >10 µg/mL |
| CCCOc1cc2c(C(=O)NC)c(-c3ccc(F)cc3)oc2cc1NS(C)(=O)=O |  |  |  | ≤0.5 µM |
| O=C(O)c1ccc(N2C(=O)C(=Cc3ccc(-c4cc5ccccc5s4)o3)SC2=S)cc1 |  |  |  | ≤1 µM |
| CON1C(Nc2ccc3cn[nH]c3c2)=NC(NC(C)C)=NC1NC(C)C |  |  |  | >10 µg/mL |
| COc1c(-c2ccc3cc(NS(C)(=O)=O)ccc3c2)cc(-n2ccc(=O)[nH]c2=O)cc1C(C)(C)C | GT 3a#2 |  | nucleotide incorporation | 11.9 µM |
| O=C1C=C(O)CC(CCc2ccc(OCc3ccc(Cl)c(Cl)c3)cc2)(C2CCCC2)O1 |  |  |  | 10–50 µM |
| O=C(O)C(=O)/C=C(\O)c1cccc(NS(=O)(=O)c2cc(Cl)c(Cl)cc2Cl)c1 |  |  |  | 0.95 µM |
| CNC(=O)c1c(-c2ccc(F)cc2)oc2cc(Cl)c(OC)cc12 |  |  |  | ≤0.5 µM |
| CC(C)NC1=NC(NC(C)C)N(CN)C(Nc2ccc3cn[nH]c3c2)=N1 |  |  |  | 0.1–1 µg/mL |
| COC(=O)Cc1ccc(CCC2(C3CCCC3)CC(=O)CC(=O)O2)cc1 |  |  |  | 10–50 µM |
| CNC(=O)c1c(-c2ccc(F)cc2)oc2cc(N(CC(C)O)S(C)(=O)=O)c(OC)cc12 |  |  |  | ≤0.5 µM |
| COc1nc(NCCCN2CCOCC2)nc(Nc2ccc3[nH]ncc3c2)n1 |  |  |  | >10 µg/mL |
| CCOc1ccc(CCC2(C3CCCC3)CC(=O)CC(=O)O2)cc1 |  |  |  | 1–10 µM |
| CCCCc1ccc(-c2ccc(C=C3SC(=S)N(c4ccc(C(=O)O)cc4)C3=O)o2)cc1 |  |  |  | ≤1 µM |
| COc1cc(OC)c(CCC2(C3CCCC3)CC(=O)CC(=O)O2)cc1Cl |  |  |  | <1 µM |
| COc1nc(Nc2ccc3[nH]ncc3c2)nc(NN2CCOCC2)n1 |  |  |  | 1–10 µg/mL |
| O=C(O)c1ccc(-c2ccc(C=C3SC(=S)N(c4ccc(C(=O)O)cc4)C3=O)o2)cc1 |  |  |  | ≤1 µM |
| O=C1CC(=O)OC(CCc2ccc(O)cc2)(C2CCCC2)C1 |  |  |  | 10–50 µM |
| CNC(=O)c1c(-c2ccc(F)cc2)oc2cc(-c3c(COC)noc3C)c(OC)cc12 |  |  |  | ≤0.5 µM |
| COc1nc(Nc2ccc3cn[nH]c3c2)nc(N2CCN(CCO)CC2)n1 |  |  |  | 0.1–1 µg/mL |
| COc1ccc(CCC2(C3CCCC3)CC(=O)C(C(C)=O)C(=O)O2)cc1 |  |  |  | 10–50 µM |
| Cc1ccnc(C=C2SC(=S)N(c3ccc(C(=O)O)cc3)C2=O)c1 |  |  |  | ≤1 µM |
| CNC(=O)c1c(-c2ccc(F)cc2)oc2cc(NS(C)(=O)=O)c(OC(C)C)cc12 |  |  |  | ≤0.5 µM |
| COc1nc(Nc2ccc3cn[nH]c3c2)nc(N2CCC(O)CC2)n1 |  |  |  | 1–10 µg/mL |
| O=C1CC(=O)OC(CCc2ccc(C(=O)N3CCC(O)CC3)cc2)(C2CCCC2)C1 |  |  |  | >50 µM |
| COc1nc(Nc2ccc3cn[nH]c3c2)nc(NN2CCN(C)CC2)n1 |  |  |  | 1–10 µg/mL |
| C[C@@]1(O)[C@H](O)[C@@H](COP(=O)([O-])OP(=O)([O-])OP(=O)([O-])O)O[C@H]1n1cnc2c(N)nc(N)nc21 | GT1b | S96T | nucleotide incorporation | 2 µM |
| O=C(O)c1ccc(N2C(=O)C(=Cc3ccc(-c4cc(C(F)(F)F)ccc4Cl)o3)SC2=S)cc1Cl |  |  |  | ≤1 µM |
| Cc1cc(SC2=C(O)CC(CCc3ccc(O)cc3)(C3CCCC3)OC2=O)c(C(C)(C)C)cc1OS(=O)(=O)N1CCN(C)CC1 |  |  |  | 1–10 µM |

Blank or dashed fields: not listed here. a–b is a range or a potency band. Conditions beyond the fields shown may differ between rows.